Data as given in PubChem BioAssay AID624099 (ICCB-Longwood, 2012)
Here is one part, drawn at random, of about 21,000 reagents. 497 of all reagents (2.4%) count as active. 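Higher z means weaker E2 silencing; only reporter increases were scored, and knock-downs that hurt cell survival may mask genuine repressor factors.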

Aim: 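Host factors E2 relies on to silence an HPV18 LCR reporter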 (primary screen)
System: human C33A cervical carcinoma cells (HPV-negative) stably expressing BPV1 E2 and an HPV18 LCR luciferase reporter
Reagent: siRNA pool against human genes, 40 nM
Duration: 72 h
Measurement: 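HPV18 LCR reporter light per well, converted to plate-wise z-scores that exclude control wells, and averaged over triplicate plates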
Scale: mean z-score and z-score: higher = stronger reporter signal, weaker E2 silencing
Rule for the call: 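Mean z ≥ 2 together with z ≥ 2 in two or more of the three replicates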

The first 2 records as a preview:
{"gene": "PDCL2 (phosducin like 2)", "mean z-score": 0.49, "z-score, replicate A": 0.57, "z-score, replicate B": 0.36, "z-score, replicate C": 0.53, "Outcome": "inactive"}
{"gene": "HOATZ (HOATZ cilia and flagella associated protein)", "mean z-score": -0.92, "z-score, replicate A": -0.59, "z-score, replicate B": -1.02, "z-score, replicate C": -1.16, "Outcome": "inactive"}

Results, from the start:
{"gene": "PDCL2 (phosducin like 2)", "mean z-score": 0.49, "z-score, replicate A": 0.57, "z-score, replicate B": 0.36, "z-score, replicate C": 0.53, "Outcome": "inactive"}
{"gene": "HOATZ (HOATZ cilia and flagella associated protein)", "mean z-score": -0.92, "z-score, replicate A": -0.59, "z-score, replicate B": -1.02, "z-score, replicate C": -1.16, "Outcome": "inactive"}
{"gene": "RXRA (retinoid X receptor alpha)", "mean z-score": 0.5, "z-score, replicate A": 0.61, "z-score, replicate B": 0.38, "z-score, replicate C": 0.52, "Outcome": "inactive"}
{"gene": "ACAT2 (acetyl-CoA acetyltransferase 2)", "mean z-score": -1.23, "z-score, replicate A": -1.22, "z-score, replicate B": -1.25, "z-score, replicate C": -1.23, "Outcome": "inactive"}
{"gene": "GPR83 (G protein-coupled receptor 83)", "mean z-score": 0.08, "z-score, replicate A": 0.12, "z-score, replicate B": 0.01, "z-score, replicate C": 0.11, "Outcome": "inactive"}
{"gene": "MROH7 (maestro heat like repeat family member 7)", "mean z-score": -0.64, "z-score, replicate A": -0.73, "z-score, replicate B": -0.54, "z-score, replicate C": -0.64, "Outcome": "inactive"}
{"gene": "VAT1 (vesicle amine transport 1)", "mean z-score": 0.69, "z-score, replicate A": 0.6, "z-score, replicate B": 0.71, "z-score, replicate C": 0.75, "Outcome": "inactive"}
{"gene": "OR52A5 (olfactory receptor family 52 subfamily A member 5)", "mean z-score": -0.26, "z-score, replicate A": -0.26, "z-score, replicate B": -0.29, "z-score, replicate C": -0.22, "Outcome": "inactive"}
{"gene": "LAMTOR2 (late endosomal/lysosomal adaptor, MAPK and MTOR activator 2)", "mean z-score": 0.76, "z-score, replicate A": 0.74, "z-score, replicate B": 0.89, "z-score, replicate C": 0.64, "Outcome": "inactive"}
{"gene": "OGN (osteoglycin)", "mean z-score": -0.73, "z-score, replicate A": -0.86, "z-score, replicate B": -0.62, "z-score, replicate C": -0.72, "Outcome": "inactive"}
{"gene": "HSDL1 (hydroxysteroid dehydrogenase like 1)", "mean z-score": -0.79, "z-score, replicate A": -0.83, "z-score, replicate B": -0.67, "z-score, replicate C": -0.88, "Outcome": "inactive"}
{"gene": "FGF22 (fibroblast growth factor 22)", "mean z-score": 0.13, "z-score, replicate A": 0.28, "z-score, replicate B": -0.16, "z-score, replicate C": 0.28, "Outcome": "inactive"}
